Our source for the ELISA A405 nm values is US20060035242A1.

The test addresses mouse pathogenic prion protein PrP^Sc (RML, in infected Balb-c mouse brain homogenate) (mouse) (UniProt P04925).

Substance peptide reagent of SEQ ID NO:35 showed an ELISA A405 nm of 0.687 A405 nm.
